Fold change is the IC50 on the isolate divided by the IC50 on a reference virus; 1 = unchanged, higher = more resistant. Changes are given against the subtype B consensus. No active / inactive call. The values were gathered from many studies (numbered anew) with different assays, which the source does not name. Most viruses are clinical isolates; some are laboratory strains or clones with known resistance changes. Isolates with mixed residues are left out; stretches that were not sequenced show no change. Round top values that many isolates share are read here as limits; other very high values and 0.1 may be limits too. The protease changes I3V and N37S, insertions and deletions cannot be read from the source.
Experiments:
Assay in all cases: fold change of IC50 against reference virus; higher = more resistant; Cell-culture drug susceptibility tests of virus bearing the protease of each isolate, gathered from many studies.
indinavir = compound: CC(C)(C)NC(=O)[C@@H]1CN(Cc2cccnc2)CCN1C[C@@H](O)C[C@@H](Cc1ccccc1)C(=O)N[C@H]1c2ccccc2C[C@H]1O [indinavir]
saquinavir = compound: CC(C)(C)NC(=O)[C@@H]1C[C@@H]2CCCC[C@@H]2CN1C[C@@H](O)[C@H](Cc1ccccc1)NC(=O)[C@H](CC(N)=O)NC(=O)c1ccc2ccccc2n1 [saquinavir]
ritonavir = compound: CC(C)c1nc(CN(C)C(=O)N[C@H](C(=O)N[C@@H](Cc2ccccc2)C[C@H](O)[C@H](Cc2ccccc2)NC(=O)OCc2cncs2)C(C)C)cs1 [ritonavir]

HIV-1 isolate 1157 (protease changes: L10I I15V K20I M36I Q58E I62V L63P G73S L90M, study 112)
fold change of IC50 against reference virus (indinavir): 8.7 | fold change of IC50 against reference virus (saquinavir): 16.9 | fold change of IC50 against reference virus (ritonavir): 14.7

HIV-1 isolate 106 (protease changes: M46I R57G L63P A71V V82F I84V, study 5)
fold change of IC50 against reference virus (indinavir): 10 | fold change of IC50 against reference virus (saquinavir): 3 | fold change of IC50 against reference virus (ritonavir): 27

HIV-1 isolate 425 (protease changes: L10R M46I L63P V82T, study 91)
fold change of IC50 against reference virus (indinavir): 4 | fold change of IC50 against reference virus (saquinavir): 1 | fold change of IC50 against reference virus (ritonavir): 3.7

HIV-1 isolate 1458 (protease changes: V82T, study 91)
fold change of IC50 against reference virus (indinavir): 1 | fold change of IC50 against reference virus (saquinavir): 1 | fold change of IC50 against reference virus (ritonavir): 1.8

HIV-1 isolate 1214 (protease changes: L10I K20M E35D M36I R41K I54V L63P A71T V82A, study 130)
fold change of IC50 against reference virus (indinavir): 8 | fold change of IC50 against reference virus (saquinavir): 2 | fold change of IC50 against reference virus (ritonavir): 8

HIV-1 isolate 411 (protease changes: L10I K20M L24I E35D M36I R41K I54V L63P A71T V82A, study 130)
fold change of IC50 against reference virus (indinavir): 15 | fold change of IC50 against reference virus (saquinavir): 8 | fold change of IC50 against reference virus (ritonavir): 8

HIV-1 isolate 1533 (protease changes: L10R T12A M46I R57K L63P I64V V82T I84V, study 130)
fold change of IC50 against reference virus (indinavir): 4 | fold change of IC50 against reference virus (saquinavir): 1 | fold change of IC50 against reference virus (ritonavir): 4

HIV-1 isolate 476 (protease changes: L10I M46I L63P V77I I84V N88T I93L, study 130)
fold change of IC50 against reference virus (indinavir): 30 | fold change of IC50 against reference virus (saquinavir): 2 | fold change of IC50 against reference virus (ritonavir): 2

HIV-1 isolate 237 (protease changes: L63P, study 91)
fold change of IC50 against reference virus (indinavir): 0.5 | fold change of IC50 against reference virus (saquinavir): 2 | fold change of IC50 against reference virus (ritonavir): 1.8

HIV-1 isolate 1206 (protease changes: L10I K14R E35D M36V N37D I54V L63P I64V A71T V82F L90M I93L, study 130)
fold change of IC50 against reference virus (indinavir): 30 | fold change of IC50 against reference virus (saquinavir): 4 | fold change of IC50 against reference virus (ritonavir): 10

HIV-1 isolate 1564 (protease changes: L10R, study 91)
fold change of IC50 against reference virus (indinavir): 0.5 | fold change of IC50 against reference virus (saquinavir): 2 | fold change of IC50 against reference virus (ritonavir): 1

HIV-1 isolate 1579 (protease changes: L10I T12S I13V I64V V82F, study 130)
fold change of IC50 against reference virus (indinavir): 4 | fold change of IC50 against reference virus (saquinavir): 1 | fold change of IC50 against reference virus (ritonavir): 4

HIV-1 isolate 1346 (protease changes: L10I I15V L24I I54V L63P A71V V82A, study 130)
fold change of IC50 against reference virus (indinavir): 30 | fold change of IC50 against reference virus (saquinavir): 2 | fold change of IC50 against reference virus (ritonavir): 8

HIV-1 isolate 256 (protease changes: M46I R57G I84C, study 5)
fold change of IC50 against reference virus (ritonavir): 6

HIV-1 isolate 1065 (protease changes: M46I R57G, study 5)
fold change of IC50 against reference virus (ritonavir): 1

HIV-1 isolate 1467 (protease changes: R57G A71V, study 5)
fold change of IC50 against reference virus (ritonavir): 1

HIV-1 isolate 512 (protease changes: R57G, study 5)
fold change of IC50 against reference virus (ritonavir): 1

HIV-1 isolate 1512 (protease changes: R57G L63P, study 5)
fold change of IC50 against reference virus (ritonavir): 1

HIV-1 isolate 205 (protease changes: M46I, study 91)
fold change of IC50 against reference virus (saquinavir): 1 | fold change of IC50 against reference virus (ritonavir): 1
